The test system of the assay is Influenza A virus (A/WSN/1933(H1N1)). The experiment in a line: Antiviral activity against Influenza A virus A/WSN/33 (H1N1) expressing M2 proton channel N31S/V27A double mutant infected in MDCK cells assessed as reduction in plaque formation measured at 46 hrs by crystal violet staining based assay.

Structures are written as SMILES. Activity calls are given as the source filed them. No cut-off for these calls is given here.

As for `N=C(N)N1CCC(C=C2C3CC4CC(C3)CC2C4)CC1`, the result was inactive.

Turning to `C1CC(C23CC4CC(CC(C4)C2)C3)CCN1`, the result was Active.

Consider `N=C(N)N1CCC(C23CC4CC(CC(C4)C2)C3)CC1`, for which the outcome was inactive.

As for `C1CCC(C23CC4CC(CC(C4)C2)C3)NC1` (stereo not given), the outcome was inactive.

Take `C1CC(C2C3CC4CC(C3)CC2C4)CCN1` (stereo not given): the result was inactive.

For the origin of these results see ChEMBL document CHEMBL4049445.
